Experimental data reported in PMC9880977 (Computational and Structural Biotechnology Journal, 2023).

Tested on: Nc1ccccc1N
Assay: purified protein
Conditions: 100 mM citrate-phosphate pH 4, air O2

Substance: HaLF (Heterobasidion irregulare TC 32-1; A247E/F364D)
- Km: 910 ± 200 µM
- kcat: 6.6 ± 0.5 s⁻¹
